Measured values from several laboratories, pooled; numbers as filed in NIAID ChemDB.

All rows: tests in culture; species: Mycobacterium avium complex; read-out: MIC

Conditions beyond the fields shown may differ between rows. a–b is a range or a potency band.

compound	strain or isolate	result
COc1cccc(SCc2cnc3nc(N)nc(N)c3c2C)c1	NJ211	≤0.13 µg/mL
CCCCCCCCO[C@@H]1O[C@H]([C@@H](COCc2ccccc2)O[C@H]2O[C@H](CO)[C@@H](O)[C@@H]2O)[C@H](OCc2ccccc2)[C@H]1OCc1ccccc1	NJ168	>128 µg/mL
COc1cccc2c1n([O-])c1cccc(OC)c1[n+]2=O	100	16 µg/mL
CC[C@H]1OC(=O)[C@H](C)[C@@H](O[C@H]2C[C@@](C)(OC)[C@@H](OC(C)=O)[C@H](C)O2)[C@H](C)[C@@H](OC2O[C@H](C)C[C@H](N(C)C)[C@H]2OC(N)=O)C(C)(O)C[C@@H](C)/C(=N\OCCCC2CCCCC2)[C@H](C)[C@@H](O)[C@]1(C)O	20034	3.13 µg/mL
CCCCO/N=C1\[C@H](C)CC(C)(O)[C@H](O[C@@H]2O[C@H](C)C[C@H](N(C)C)[C@H]2O)[C@@H](C)[C@H](OC2C[C@@](C)(OC)[C@@H](O)[C@H](C)O2)[C@@H](C)C(=O)O[C@H](CC)[C@@](C)(O)[C@H](O)[C@H]1C	20096	>50 µg/mL
CC[C@H]1OC(=O)[C@H](C)[C@@H](O[C@H]2C[C@@](C)(OC)[C@@H](O)[C@H](C)O2)[C@H](C)[C@@H](O[C@@H]2O[C@H](C)C[C@H](N(C)C)[C@H]2O)[C@](C)(OC)C[C@@H](C)C(=O)[C@H](C)[C@@H](O)[C@]1(C)O	N-265 (HIV-)	2 µg/mL
COc1cc(NCc2cnc3nc(N)nc(N)c3c2C)cc(OC)c1OC	NJ211	≤0.13 µg/mL
CC[C@H]1OC(=O)[C@H](C)[C@@H](OC2C[C@@](C)(OC)[C@@H](O)[C@H](C)O2)[C@H](C)[C@@H](O[C@@H]2O[C@H](C)C[C@H](N(C)C)[C@H]2O)C(C)(O)C[C@@H](C)/C(=N\OCCCCc2ccccc2)[C@H](C)[C@@H](O)[C@]1(C)O	20096 (clarithromycin-resistant)	3.13 µg/mL
NNC(=O)c1ccncc1	N-259 (HIV-)	1 µg/mL
CC[C@H]1OC(=O)[C@H](C)[C@@H](OC2C[C@@](C)(OC)[C@@H](O)[C@H](C)O2)[C@H](C)[C@@H](O[C@@H]2O[C@H](C)C[C@H](N(C)C)[C@H]2O)C(C)(O)C[C@@H](C)/C(=N\OCCCC2CCCCC2)[C@H](C)[C@@H](O)[C@]1(C)O	20092	12.5 µg/mL
COc1cccc2c1[n+]([O-])c1cccc(O)c1[n+]2[O-]	100	4 µg/mL
CN[C@@H]1[C@@H](O)C(O[C@@H]2[C@@H](O)[C@H](OC3O[C@H](CN)[C@@H](O)[C@H](O)[C@H]3O)[C@@H](N)C[C@H]2NC(=O)[C@@H](O)CN)OC[C@]1(C)O	T38	25 µg/mL
NNC(=O)c1ccncc1	13033	0.4–0.63 µg/mL
CO[C@H]1/C=C/O[C@@]2(C)Oc3c(C)c(O)c4c(O)c(c5c(c4c3C2=O)NC2(CCN(CC(C)C)CC2)N=5)=NC(=O)/C(C)=C\C=C\[C@H](C)[C@H](O)[C@@H](C)[C@@H](O)[C@@H](C)[C@H](OC(C)=O)[C@@H]1C	F-2	0.5 µg/mL
Cc1c(Cl)cccc1NCc1cnc2nc(N)nc(N)c2c1C	NJ168	≤0.13 µg/mL
CCO/N=C1\[C@H](C)CC(C)(O)[C@H](O[C@@H]2O[C@H](C)C[C@H](N(C)C)[C@H]2O)[C@@H](C)[C@H](O[C@H]2C[C@@](C)(OC)[C@@H](OC(C)=O)[C@H](C)O2)[C@@H](C)C(=O)O[C@H](CC)[C@@](C)(O)[C@H](O)[C@H]1C	20096 (clarithromycin-resistant)	>50 µg/mL
CO[C@H]1/C=C/O[C@@]2(C)Oc3c(C)c(O)c4c(=O)c(c5oc6cc(N7CCN(CC(C)C)CC7)cc(=O)c6nc5c4c3=C2O)NC(=O)/C(C)=C\C=C\[C@H](C)[C@H](O)[C@@H](C)[C@@H](O)[C@@H](C)[C@H](OC(C)=O)[C@@H]1C	N-238 (HIV-)	0.05 µg/mL
CO[C@H]1/C=C/O[C@@]2(C)Oc3c(C)c(O)c4c(=O)c(c5oc6cc(N7CCN(CC(C)C)CC7)cc(=O)c6nc5c4c3=C2O)NC(=O)/C(C)=C\C=C\[C@H](C)[C@H](O)[C@@H](C)[C@@H](O)[C@@H](C)[C@H](OC(C)=O)[C@@H]1C	N-444	0.03 µg/mL
C#CCNC(=O)O[C@H]1C(O[C@@H]2[C@@H](C)[C@H](O[C@H]3C[C@@](C)(OC)[C@@H](OC(C)=O)[C@H](C)O3)[C@@H](C)C(=O)O[C@H](CC)[C@@](C)(O)[C@H](O)[C@@H](C)/C(=N/OCCCC3CCCCC3)[C@H](C)CC2(C)O)O[C@H](C)C[C@@H]1N(C)C	20096	0.2 µg/mL
CCCCCCCCO[C@@H]1O[C@H]([C@@H](CO)O[C@H]2O[C@H](CO)[C@@H](O)[C@@H]2O)[C@H](O)[C@H]1O	NJ211	>128 µg/mL
COc1cccc2c1nc1cccc(OC)c1[n+]2[O-]	101	16 µg/mL
CCCCCCCCCCCCCCN(C)C(=O)O[C@H]1C(O[C@@H]2[C@@H](C)[C@H](O[C@H]3C[C@@](C)(OC)[C@@H](OC(C)=O)[C@H](C)O3)[C@@H](C)C(=O)O[C@H](CC)[C@@](C)(O)[C@H](O)[C@@H](C)/C(=N/OCCCC3CCCCC3)[C@H](C)CC2(C)O)O[C@H](C)C[C@@H]1N(C)C	20034	0.1 µg/mL
CCCCCCCCCCCCO/N=C1\[C@H](C)CC(C)(O)[C@H](O[C@@H]2O[C@H](C)C[C@H](N(C)C)[C@H]2O)[C@@H](C)[C@H](OC2C[C@@](C)(OC)[C@@H](O)[C@H](C)O2)[C@@H](C)C(=O)O[C@H](CC)[C@@](C)(O)[C@H](O)[C@H]1C	20096	25 µg/mL
COCc1c(CNc2cc(OC)ccc2OC)cnc2nc(N)nc(N)c12	NJ211	>13 µg/mL
CO[C@H]1/C=C/O[C@@]2(C)Oc3c(C)c(O)c4c(O)c(c5c(c4c3C2=O)NC2(CCN(CC(C)C)CC2)N=5)=NC(=O)/C(C)=C\C=C\[C@H](C)[C@H](O)[C@@H](C)[C@@H](O)[C@@H](C)[C@H](OC(C)=O)[C@@H]1C	N-981 (HIV+)	0.8 µg/mL
CC[C@H]1OC(=O)[C@H](C)[C@@H](OC2C[C@@](C)(OC)[C@@H](O)[C@H](C)O2)[C@H](C)[C@@H](O[C@@H]2O[C@H](C)C[C@H](N(C)C)[C@H]2O)C(C)(O)C[C@@H](C)/C(=N\OCCSc2ccccc2)[C@H](C)[C@@H](O)[C@]1(C)O	20092	25 µg/mL
CC[C@H]1OC(=O)[C@H](C)[C@@H](O[C@H]2C[C@@](C)(OC)[C@@H](OC(C)=O)[C@H](C)O2)[C@H](C)[C@@H](O[C@@H]2O[C@H](C)C[C@H](N(C)C)[C@H]2O)C(C)(O)C[C@@H](C)/C(=N\OCCSc2ccccc2)[C@H](C)[C@@H](O)[C@]1(C)O	20092 (clarithromycin-resistant)	12.5 µg/mL
CC[C@H]1OC(=O)[C@H](C)[C@@H](OC2C[C@@](C)(OC)[C@@H](O)[C@H](C)O2)[C@H](C)[C@@H](O[C@@H]2O[C@H](C)C[C@H](N(C)C)[C@H]2O)C(C)(OC)C[C@@H](C)/C(=N\OCCCOc2ccccc2)[C@H](C)[C@@H](O)[C@]1(C)O	20092	12.5 µg/mL
Cc1c(CNc2ccc3ccccc3c2)cnc2nc(N)nc(N)c12	NJ3404	≤0.13 µg/mL
CC[C@H]1OC(=O)[C@H](C)[C@@H](O[C@H]2C[C@@](C)(OC)[C@@H](OC(C)=O)[C@H](C)O2)[C@H](C)[C@@H](OC2O[C@H](C)C[C@H](N(C)C)[C@H]2OC(=O)NCCCCCCCCCCCCCCN(C)C)C(C)(O)C[C@@H](C)/C(=N\OCCCC2CCCCC2)[C@H](C)[C@@H](O)[C@]1(C)O	20096	0.78 µg/mL
CC[C@H]1OC(=O)[C@H](C)[C@@H](OC2C[C@@](C)(OC)[C@@H](OC(=O)C(C)C)[C@H](C)O2)[C@H](C)[C@@H](O[C@@H]2O[C@H](C)C[C@H](N(C)C)[C@H]2O)C(C)(O)C[C@@H](C)/C(=N\OCCCOc2ccccc2)[C@H](C)[C@@H](O)[C@]1(C)O	20039 (clarithromycin-susceptible)	0.78 µg/mL
CC[C@H]1OC(=O)[C@H](C)[C@@H](OC2C[C@@](C)(OC)[C@@H](O)[C@H](C)O2)[C@H](C)[C@@H](O[C@@H]2O[C@H](C)C[C@H](N(C)C)[C@H]2O)C(C)(O)C[C@@H](C)/C(=N\OCCc2cccs2)[C@H](C)[C@@H](O)[C@]1(C)O	20039	1.56 µg/mL
CC/C=C/CCNC(=O)O[C@H]1C(O[C@@H]2[C@@H](C)[C@H](O[C@H]3C[C@@](C)(OC)[C@@H](OC(C)=O)[C@H](C)O3)[C@@H](C)C(=O)O[C@H](CC)[C@@](C)(O)[C@H](O)[C@@H](C)/C(=N/OCCCC3CCCCC3)[C@H](C)CC2(C)O)O[C@H](C)C[C@@H]1N(C)C	20045	0.2 µg/mL

4 of the rows above, restated:

compound,strain or isolate,result
CC[C@H]1OC(=O)[C@H](C)[C@@H](O[C@H]2C[C@@](C)(OC)[C@@H](O)[C@H](C)O2)[C@H](C)[C@@H](O[C@@H]2O[C@H](C)C[C@H](N(C)C)[C@H]2O)[C@](C)(OC)C[C@@H](C)C(=O)[C@H](C)[C@@H](O)[C@]1(C)O,N-265 (HIV-),2 µg/mL
CCCCCCCCO[C@@H]1O[C@H]([C@@H](CO)O[C@H]2O[C@H](CO)[C@@H](O)[C@@H]2O)[C@H](O)[C@H]1O,NJ211,>128 µg/mL
CCCCO/N=C1\[C@H](C)CC(C)(O)[C@H](O[C@@H]2O[C@H](C)C[C@H](N(C)C)[C@H]2O)[C@@H](C)[C@H](OC2C[C@@](C)(OC)[C@@H](O)[C@H](C)O2)[C@@H](C)C(=O)O[C@H](CC)[C@@](C)(O)[C@H](O)[C@H]1C,20096,>50 µg/mL
NNC(=O)c1ccncc1,13033,0.4–0.63 µg/mL